Measurements as given in patent US11702444B2 (Shenzhen Institute of Geriatrics, priority 2020, dated 2023).

Assay: general procedure: solution-phase peptide synthesis; HATU/DIPEA
Settings: late stage modification step, total yield of five steps

## Tubulysin U
  step yield: 80%
